{"sequences": {"note": "Amino acid sequences for entries named in this document (tags omitted). A change or cut given only in a name is not applied to a line headed by its entry.", "UniProt P9WP15": "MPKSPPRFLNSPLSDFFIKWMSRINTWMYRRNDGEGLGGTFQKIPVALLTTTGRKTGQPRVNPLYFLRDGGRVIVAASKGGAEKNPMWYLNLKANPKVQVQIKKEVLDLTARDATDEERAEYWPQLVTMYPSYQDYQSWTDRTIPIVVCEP"}, "source": "paper PMC7032734", "about": "“Predicting nitroimidazole antibiotic resistance mutations in Mycobacterium tuberculosis with protein engineering” (2020)", "target": "Ddn (Mycobacterium tuberculosis, UniProt P9WP15)", "assay": "F420H2 oxidation, absorbance at […] nm", "conditions": "F420H2 25 μM, 200 mM Tris-HCl pH 7.5, 0.1% Triton X-100, room temperature"}
{"smiles": "CC(C)=CCC1=C(C)C(=O)c2ccccc2C1=O", "values": [{"measurement": "Km", "value": 22.4, "unit": "µM"}]}
